## Primary screen of a compound library

From ChEMBL document CHEMBL3988442, “University of Dundee, Small-Polar-MMV Screening Library” (2021).

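Growth of Mycobacterium tuberculosis over 3 days (7H9 medium with glucose and tyloxapol); the read-out is not stated. Compounds at 500 µM. Higher reads as more growth inhibition (inferred: compounds with an IC50 in retests scored well above the rest). Size under these conditions: about 18,000 compounds, about 1,400 of them at 50% or above in at least one test.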

Values are the deposited “Percent Effect”, in %. The controls that fix the scale are not given in the record; negative values are as filed. Many other results are left out here, so strong results are more common than in the screen.

* O=C1NCC(C(=O)NCCCc2ccc(Cl)cc2)N1 (stereo not shown) | 51.49%
* COCC(=O)N1CCCN(Cc2ncc[nH]2)CC1 | 1.38%
* NC(=O)CC1CCN(Cc2cccc(F)c2)CC1 | -4.002%
* COc1ccc2c(c1)[C@@H](N)CCO2 | 7.291%
* COc1ccc(CCN)cc1F | 52.69%
* NCCNc1nccc(C(F)(F)F)n1 | 10.72%
* COCc1ccc(SCC(=O)N(C)C)cc1 | 52.43%
* CC(c1ccccn1)N(C)C(=O)c1cscn1 (stereo not shown) | -12.83%
* Cc1cccc(C)c1CN(C)S(C)(=O)=O | 14.98%
* NS(=O)(=O)N1CCN(Cc2cc3ccccc3s2)CC1 | 7.863%
* O=C(Cn1c(=O)[nH]c(=O)c2ccccc21)NC1CC1 | -8.597%
* OCCc1ccoc1 | 4.184%
* CC(C)[C@@H](CO)NCc1ccc(F)c(C#N)c1 | 3.996%
* O=C(Nc1nc(C2CC2)cs1)C1CNCCO1 (stereo not shown) | 19.72%
* c1cnc(N2CCN(Cc3cscn3)CC2)nc1 | 24.5%
* Cc1ccc(C(C)C)c(OCC(O)CNCCO)c1 (stereo not shown) | 82.09%
* CCc1n[nH]c(SCC(=O)Nc2ccc(Br)cn2)n1 | 77.35%
* CCOC(=O)c1ncsc1Cl | 15.56%
* C[C@@H](CO)NC(=O)c1cc(N(C)C)ccn1 | -2.281%
* Cc1ncn(Cc2cc(=O)n3ccsc3n2)c(=O)c1C | 1.324%
* COc1c(N)c(C)nn1C | 13.86%
* COc1ccc([S+]([O-])Cc2noc(C)n2)cc1 (stereo not shown) | 49.83%
* O=C(NCC1CCCNC1)c1ccccc1 (stereo not shown) | 30.63%
* O=C(c1ccccn1)N1CCC2(CCCCO2)CC1 | 35.6%
* OC1CCCN(CCCNC2CCSCC2)C1 (stereo not shown) | 13.31%
* c1cc(-c2nnc[nH]2)ccn1 | -12.45%
* CCN1CCN(CC(=O)Nc2cc(C)cc(C)c2)CC1 | 42.82%
* NC1CCCN(c2ccccn2)C1 (stereo not shown) | 7.585%
* CC(C)c1noc(CCNC(=O)Cc2ccncc2)n1 | 15.95%
* COc1ccc(CN)c(F)c1 | 1.324%
* CSc1ccc2c(c1)CCN(C(=O)C1CCNC1)C2 (stereo not shown) | 72.69%
* Cc1noc(OCC(=O)N(C)Cc2ccco2)n1 | -9.07%
* Cc1cncc(NS(=O)(=O)CCc2ccccc2)c1 | 59.72%
* CCCc1nc(CN(CC)C(=O)[C@@H]2CCC(=O)N2)no1 | 2.855%
* Clc1cnccc1CN1CCC2(CC1)OCCO2 | 35.64%
* Cc1cc(C)c(CN2CCOC(CN)C2)cc1C (stereo not shown) | 79.41%
* O=C(NC1CC1)C1CCN(CC2CCC2)CC1 | -8.359%
* CCCn1ncnc1-c1ccc(S(C)(=O)=O)cc1 | -1.838%
* CCN1CCN(C(C)CNC(=O)c2scnc2C)CC1 (stereo not shown) | 7.653%
* CCC[C@H]1CN(C(=O)c2scnc2C)C[C@@H]1N | 5.87%
* CC(C)(C)OC(=O)N1CCN(C2CCC(N)CC2)CC1 (stereo not shown) | 46.01%
* COCC(=O)N1CCC(Nc2cncc(Br)c2)CC1 | -8.039%
* OC1(c2ccccc2)CCCNC1 (stereo not shown) | -11.54%
* NCc1ccc(OC2CCCCC2)nc1 | 52.36%
* CCC(O)COc1cc(C)ccc1C(N)=O (stereo not shown) | 12.48%

For reference, 3 entries once more:

- CCN1CCN(C(C)CNC(=O)c2scnc2C)CC1 (stereo not shown) : 7.653%
- COCC(=O)N1CCC(Nc2cncc(Br)c2)CC1 : -8.039%
- Cc1cc(C)c(CN2CCOC(CN)C2)cc1C (stereo not shown) : 79.41%